Key:
Homo sapiens = species on record: Homo sapiens; assay: Activity relative to compound 3 (set to 1.0) was evaluated against H116 colon tumor cell lines; format: functional
In short: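 Disk diffusion soft agar colony formation assay on human H116 colon tumor cells, with 15 µL of sample applied to a disk and zone units read. Relative activity = (dilution required for 500 zone units × 100)/(mg/mL), normalised to a reference compound set at 1.0.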

colon [1] = assay: Selectivity was evaluated against human ZH116 colon cell lines-CEM lymphocytic leukemia cell lines at a concentration of 163 ug/mL
MC-38 [2] = assay: Selectivity was evaluated against murine tumor ZC38 colon adenocarcinoma cell lines- ZCFU-GM normal bone marrow cell lines at a concentration of 163 ug/mL; conditions: Mus musculus
NCI-H125 [3] = assay: Selectivity was evaluated against human ZH125 lung non small cell carcinoma cell lines-CEM lymphocytic leukemia cell lines at a concentration of 163 ug/mL
MC-38 [4] = assay: Selectivity was evaluated against Murine tumor ZC38 colon adenocarcinoma cell lines- ZL1210 lymphocytic leukemia cell lines at a concentration of 163 ug/mL; conditions: Mus musculus
L1210 [5] = assay: Selectivity was evaluated murine tumor against ZL1210 lymphocytic leukemia cell lines- ZCFU-GM normal bone marrow cell lines at a concentration of 163 ug/mL; conditions: Mus musculus
colon [6] = assay: Selectivity was evaluated against human ZH116 colon cell lines-CEM lymphocytic leukemia cell lines at a concentration of 0.78 ug/mL
MC-38 [7] = assay: Selectivity was evaluated against murine tumor ZC38 colon adenocarcinoma cell lines- ZCFU-GM normal bone marrow cell lines at a concentration of 0.78 ug/mL; conditions: Mus musculus
NCI-H125 [8] = assay: Selectivity was evaluated against human ZH125 lung non small cell carcinoma cell lines-CEM lymphocytic leukemia cell lines at a concentration of 0.78 ug/mL
MC-38 [9] = assay: Selectivity was evaluated against Murine tumor ZC38 colon adenocarcinoma cell lines- ZL1210 lymphocytic leukemia cell lines at a concentration of 0.78 ug/mL; conditions: Mus musculus
L1210 [10] = assay: Selectivity was evaluated murine tumor against ZL1210 lymphocytic leukemia cell lines- ZCFU-GM normal bone marrow cell lines at a concentration of 0.78 ug/mL; conditions: Mus musculus
colon [11] = assay: Selectivity was evaluated against human ZH116 colon cell lines-CEM lymphocytic leukemia cell lines at a concentration of 41 ug/mL
MC-38 [12] = assay: Selectivity was evaluated against murine tumor ZC38 colon adenocarcinoma cell lines- ZCFU-GM normal bone marrow cell lines at a concentration of 41 ug/mL; conditions: Mus musculus
NCI-H125 [13] = assay: Selectivity was evaluated against human ZH125 lung non small cell carcinoma cell lines-CEM lymphocytic leukemia cell lines at a concentration of 41 ug/mL
L1210 [14] = assay: Selectivity was evaluated murine tumor against ZL1210 lymphocytic leukemia cell lines- ZCFU-GM normal bone marrow cell lines at a concentration of 41 ug/mL; conditions: Mus musculus
colon [15] = assay: Selectivity was evaluated against human ZH116 colon cell lines-CEM lymphocytic leukemia cell lines at a concentration of 8.6 ug/mL
MC-38 [16] = assay: Selectivity was evaluated against murine tumor ZC38 colon adenocarcinoma cell lines- ZCFU-GM normal bone marrow cell lines at a concentration of 8.6 ug/mL; conditions: Mus musculus
NCI-H125 [17] = assay: Selectivity was evaluated against human ZH125 lung non small cell carcinoma cell lines-CEM lymphocytic leukemia cell lines at a concentration of 8.6 ug/mL
MC-38 [18] = assay: Selectivity was evaluated against Murine tumor ZC38 colon adenocarcinoma cell lines- ZL1210 lymphocytic leukemia cell lines at a concentration of 8.6 ug/mL; conditions: Mus musculus
L1210 [19] = assay: Selectivity was evaluated murine tumor against ZL1210 lymphocytic leukemia cell lines- ZCFU-GM normal bone marrow cell lines at a concentration of 8.6 ug/mL; conditions: Mus musculus
colon [20] = assay: Selectivity was evaluated against human ZH116 colon cell lines-CEM lymphocytic leukemia cell lines at a concentration of 0.90 ug/mL
MC-38 [21] = assay: Selectivity was evaluated against murine tumor ZC38 colon adenocarcinoma cell lines- ZCFU-GM normal bone marrow cell lines at a concentration of 0.90 ug/mL; conditions: Mus musculus
NCI-H125 [22] = assay: Selectivity was evaluated against human ZH125 lung non small cell carcinoma cell lines-CEM lymphocytic leukemia cell lines at a concentration of 0.90 ug/mL
MC-38 [23] = assay: Selectivity was evaluated against Murine tumor ZC38 colon adenocarcinoma cell lines- ZL1210 lymphocytic leukemia cell lines at a concentration of 0.90 ug/mL; conditions: Mus musculus
L1210 [24] = assay: Selectivity was evaluated murine tumor against ZL1210 lymphocytic leukemia cell lines- ZCFU-GM normal bone marrow cell lines at a concentration of 0.90 ug/mL; conditions: Mus musculus
colon [25] = assay: Selectivity was evaluated against human ZH116 colon cell lines-CEM lymphocytic leukemia cell lines at a concentration of 30 ug/mL
MC-38 [26] = assay: Selectivity was evaluated against murine tumor ZC38 colon adenocarcinoma cell lines- ZCFU-GM normal bone marrow cell lines at a concentration of 30 ug/mL; conditions: Mus musculus
NCI-H125 [27] = assay: Selectivity was evaluated against human ZH125 lung non small cell carcinoma cell lines-CEM lymphocytic leukemia cell lines at a concentration of 30 ug/mL
MC-38 [28] = assay: Selectivity was evaluated against Murine tumor ZC38 colon adenocarcinoma cell lines- ZL1210 lymphocytic leukemia cell lines at a concentration of 30 ug/mL; conditions: Mus musculus
L1210 [29] = assay: Selectivity was evaluated murine tumor against ZL1210 lymphocytic leukemia cell lines- ZCFU-GM normal bone marrow cell lines at a concentration of 30 ug/mL; conditions: Mus musculus
colon [30] = assay: Selectivity was evaluated against human ZH116 colon cell lines-CEM lymphocytic leukemia cell lines at a concentration of 175 ug/mL
MC-38 [31] = assay: Selectivity was evaluated against murine tumor ZC38 colon adenocarcinoma cell lines- ZCFU-GM normal bone marrow cell lines at a concentration of 175 ug/mL; conditions: Mus musculus
NCI-H125 [32] = assay: Selectivity was evaluated against human ZH125 lung non small cell carcinoma cell lines-CEM lymphocytic leukemia cell lines at a concentration of 175 ug/mL
MC-38 [33] = assay: Selectivity was evaluated against Murine tumor ZC38 colon adenocarcinoma cell lines- ZL1210 lymphocytic leukemia cell lines at a concentration of 175 ug/mL; conditions: Mus musculus
L1210 [34] = assay: Selectivity was evaluated murine tumor against ZL1210 lymphocytic leukemia cell lines- ZCFU-GM normal bone marrow cell lines at a concentration of 175 ug/mL; conditions: Mus musculus
colon [35] = assay: Selectivity was evaluated against human ZH116 colon cell lines-CEM lymphocytic leukemia cell lines at a concentration of 1.3 ug/mL
MC-38 [36] = assay: Selectivity was evaluated against murine tumor ZC38 colon adenocarcinoma cell lines- ZCFU-GM normal bone marrow cell lines at a concentration of 1.3 ug/mL; conditions: Mus musculus
NCI-H125 [37] = assay: Selectivity was evaluated against human ZH125 lung non small cell carcinoma cell lines-CEM lymphocytic leukemia cell lines at a concentration of 1.3 ug/mL
MC-38 [38] = assay: Selectivity was evaluated against Murine tumor ZC38 colon adenocarcinoma cell lines- ZL1210 lymphocytic leukemia cell lines at a concentration of 1.3 ug/mL; conditions: Mus musculus
L1210 [39] = assay: Selectivity was evaluated murine tumor against ZL1210 lymphocytic leukemia cell lines- ZCFU-GM normal bone marrow cell lines at a concentration of 1.3 ug/mL; conditions: Mus musculus
colon [40] = assay: Selectivity was evaluated against human ZH116 colon cell lines-CEM lymphocytic leukemia cell lines at a concentration of 0.14 ug/mL
MC-38 [41] = assay: Selectivity was evaluated against murine tumor ZC38 colon adenocarcinoma cell lines- ZCFU-GM normal bone marrow cell lines at a concentration of 0.14 ug/mL; conditions: Mus musculus
NCI-H125 [42] = assay: Selectivity was evaluated against human ZH125 lung non small cell carcinoma cell lines-CEM lymphocytic leukemia cell lines at a concentration of 0.14 ug/mL
MC-38 [43] = assay: Selectivity was evaluated against Murine tumor ZC38 colon adenocarcinoma cell lines- ZL1210 lymphocytic leukemia cell lines at a concentration of 0.14 ug/mL; conditions: Mus musculus
L1210 [44] = assay: Selectivity was evaluated murine tumor against ZL1210 lymphocytic leukemia cell lines- ZCFU-GM normal bone marrow cell lines at a concentration of 0.14 ug/mL; conditions: Mus musculus

## CC1=C[C@H]2OC3C[C@@H](OC(=O)/C=C\C=C\[C@H](O)[C@H](C)O)[C@](C)([C@@]2(COC(=O)/C=C(\C)CCO)CC1)[C@]31CO1 [TRICHOVERRIN A]
Homo sapiens
  Relative activity: 3
Colon [1]
  Selectivity: -50 zone unit
MC-38 [2]
  Selectivity: -200 zone unit
NCI-H125 [3]
  Selectivity: -100 zone unit
MC-38 [4]
  Selectivity: -500 zone unit
L1210 [5]
  Selectivity: 300 zone unit

## CC1=C[C@H]2O[C@@H]3C[C@H]4OC(=O)/C=C\C=C\C(=O)OCC[C@@H](C)[C@H](O)C(=O)OC[C@@]2(CC1)[C@]4(C)[C@]31CO1 [VERRUCARIN A]
Homo sapiens
  Relative activity: 692
Colon [6]
  Selectivity: -200 zone unit
MC-38 [7]
  Selectivity: 50 zone unit
NCI-H125 [8]
  Selectivity: -200 zone unit
MC-38 [9]
  Selectivity: -300 zone unit
L1210 [10]
  Selectivity: 350 zone unit

## CC1=C[C@H]2O[C@@H]3C[C@H]4OC(=O)/C=C\C=C\[C@H]([C@@H](C)O)OCC[C@@H](C)[C@H](O)C(=O)OC[C@@]2(CC1)[C@]4(C)[C@]31CO1 [RORIDIN A]
Homo sapiens
  Relative activity: 703
Colon [6]
  Selectivity: -100 zone unit
MC-38 [7]
  Selectivity: 50 zone unit
NCI-H125 [8]
  Selectivity: -150 zone unit
MC-38 [9]
  Selectivity: -300 zone unit
L1210 [10]
  Selectivity: 350 zone unit

## CC1=C[C@H]2O[C@@H]3[C@H](O)[C@H]4OC(=O)/C=C\C=C\[C@@H]5O[C@H](C/C(C)=C/C(=O)OC[C@@]2(CC1)[C@]4(C)[C@]31CO1)O[C@H]5C [RORIDIN M]
Homo sapiens
  Relative activity: 14
Colon [11]
  Selectivity: -150 zone unit
MC-38 [12]
  Selectivity: 100 zone unit
NCI-H125 [13]
  Selectivity: -100 zone unit
L1210 [14]
  Selectivity: 100 zone unit

## CC1=C[C@H]2O[C@@H]3C[C@H]4OC(=O)/C=C\C=C\[C@H]([C@H](C)O)OCC/C(C)=C/C(=O)OC[C@@]2(CC1)[C@]4(C)[C@]31CO1
Homo sapiens
  Relative activity: 256
Colon [15]
  Selectivity: > -150 zone unit
MC-38 [16]
  Selectivity: 0 zone unit
NCI-H125 [17]
  Selectivity: > -150 zone unit
MC-38 [18]
  Selectivity: -550 zone unit
L1210 [19]
  Selectivity: 550 zone unit

## CC1=C[C@H]2O[C@@H]3C[C@H]4OC(=O)/C=C\C=C\[C@H]([C@H](C)O)OCC[C@@H](C)[C@H](O)C(=O)OC[C@@]2(CC1)[C@]4(C)[C@]31CO1 [(6'R,13'S) ISORORIDIN A]
Homo sapiens
  Relative activity: 1070
Colon [20]
  Selectivity: -150 zone unit
MC-38 [21]
  Selectivity: -50 zone unit
NCI-H125 [22]
  Selectivity: -150 zone unit
MC-38 [23]
  Selectivity: -500 zone unit
L1210 [24]
  Selectivity: 450 zone unit

## CC1=C[C@H]2O[C@@H]3[C@H](O)[C@H]4OC(=O)/C=C\C=C\C(=O)OCC/C(C)=C/C(=O)OC[C@@]2(CC1)[C@]4(C)[C@]31CO1 [VERRUCARRIN M]
Homo sapiens
  Relative activity: 19
Colon [25]
  Selectivity: -50 zone unit
MC-38 [26]
  Selectivity: -50 zone unit
NCI-H125 [27]
  Selectivity: -50 zone unit
MC-38 [28]
  Selectivity: 150 zone unit
L1210 [29]
  Selectivity: -200 zone unit

## CC1=C[C@H]2OC3C[C@@H](OC(=O)/C=C\C=C\[C@H](O)[C@@H](C)O)[C@](C)([C@@]2(COC(=O)/C=C(\C)CCO)CC1)[C@]31CO1 [TRICHOVERRIN B]
Homo sapiens
  Relative activity: 6
Colon [30]
  Selectivity: -150 zone unit
MC-38 [31]
  Selectivity: 300 zone unit
NCI-H125 [32]
  Selectivity: -100 zone unit
MC-38 [33]
  Selectivity: -300 zone unit
L1210 [34]
  Selectivity: 600 zone unit

## CC1=C[C@H]2O[C@@H]3[C@H](O)[C@H]4OC(=O)/C=C\C=C\[C@H]([C@H](C)O)OCC/C(C)=C/C(=O)OC[C@@]2(CC1)[C@]4(C)[C@]31CO1 [RORIDIN L]
Homo sapiens
  Relative activity: 632
Colon [35]
  Selectivity: -100 zone unit
MC-38 [36]
  Selectivity: 0 zone unit
NCI-H125 [37]
  Selectivity: -50 zone unit
MC-38 [38]
  Selectivity: -400 zone unit
L1210 [39]
  Selectivity: 400 zone unit

## CC1=C[C@H]2O[C@@H]3[C@H](O)[C@H]4OC(=O)/C=C\C=C\[C@H]([C@@H](C)O)OCC/C(C)=C/C(=O)OC[C@@]2(CC1)[C@]4(C)[C@]31CO1
Homo sapiens
  Relative activity: 392
Colon [40]
  Selectivity: 0 zone unit
MC-38 [41]
  Selectivity: -50 zone unit
NCI-H125 [42]
  Selectivity: 50 zone unit
MC-38 [43]
  Selectivity: -300 zone unit
L1210 [44]
  Selectivity: 250 zone unit

— ChEMBL document CHEMBL1145117, “Structures and cytotoxic properties of trichoverroids and their macrolide analogues produced by saltwater culture of Myrothecium verrucaria” (J Med Chem, 2003)
